These results are taken from PMC5501398 (PLoS ONE, 2017).

Usually Ki stands for a dissociation constant, usually derived from enzyme kinetics or from competition with a known ligand. A low value points to a stronger hold on the target.

The test concerns the target T1, VcIIPK (Vibrio cholerae, UniProt Q9KQJ0).
T1 construct: gene VC_2008

Substance ADP-Cr^2+ displayed a Ki of 1.3 ± 0.1 mM.
